According to US10975126B1 (priority 2020, dated 2021):

Tested on: MERS-CoV
Test: Plaque reduction assay
Assay type: cell-based, MERS-CoV (CoV/KOR/KNIH/002_05_2015) in Vero cells
Settings: 10 μM peptide mixed with MERS-CoV for 30 min; Vero cells; counted four days after infection

SMILES: CC[C@H](C)[C@H](NC(=O)[C@H](Cc1ccc(O)cc1)NC(=O)[C@H](CO)NC(=O)[C@H](CCC(=O)O)NC(=O)[C@H](CC(N)=O)NC(=O)[C@H](CC(C)C)NC(=O)[C@H](C)NC(=O)[C@H](CCCCN)NC(=O)[C@@H](NC(=O)[C@@H](NC(=O)[C@H](CCC(N)=O)NC(=O)[C@H](CCC(N)=O)NC(=O)[C@H](CC(C)C)NC(=O)[C@H](CO)NC(=O)[C@H](CC(C)C)NC(=O)[C@H](CCSC)NC(=O)[C@H](CCC(=O)O)NC(=O)[C@H](Cc1ccc(O)cc1)NC(=O)[C@@H](NC(=O)[C@H](CC(C)C)NC(=O)[C@H](CC(=O)O)NC(=O)[C@H](CC(C)C)NC(=O)[C@H](CC(C)C)NC(=O)[C@@H](NC(=O)[C@@H](NC(=O)[C@H](CC(N)=O)NC(=O)[C@@H](NC(=O)[C@H](CCC(N)=O)NC(=O)[C@@H](NC(=O)[C@H](CC(C)C)NC(=O)[C@@H](N)CO)[C@@H](C)O)[C@@H](C)CC)[C@@H](C)O)[C@@H](C)O)[C@@H](C)O)C(C)C)C(C)C)C(=O)N[C@@H](CC(=O)O)C(=O)N[C@@H](CC(C)C)C(=O)N[C@@H](CCCCN)C(=O)N[C@@H](Cc1c[nH]cn1)C(=O)N[C@@H](CC(C)C)C(=O)O
- # Plaques: 36
